From publication PMC9517990 (Communications Biology, 2022)

How the values were obtained:
[1] = biological target: neuraminidase of A/South Korea/90207/2020 NA-H275Y virus (Influenza A virus (A(H1N1)pdm09), UniProt A0A0X9QTS2, H275Y); experiment: Fluorometric neuraminidase inhibition assay, NA-H275Y isolate; assay type: biochemical; conditions: NA-H275Y virus isolate vs NA-H275 wild type
[2] = biological target: neuraminidase of A/South Korea/90207/2020 NA-H275Y + PA-I38T virus (Influenza A virus (A(H1N1)pdm09), UniProt A0A0X9QTS2, H275Y); experiment: Fluorometric neuraminidase inhibition assay, NA-H275Y + PA-I38T isolate; assay type: biochemical; conditions: NA-H275Y + PA-I38T virus isolate vs NA-H275 wild type

For `CCC(CC)[C@H](NC(C)=O)[C@@H]1[C@H](O)[C@@H](C(=O)O)C[C@H]1N=C(N)N` [Peramivir, peramivir], the “IC50 fold change compared to WT” value [1] was 106 fold, the “IC50 fold change compared to WT” value ([1]; listed as PER) was “approximately 100 fold” and the “IC50 fold change compared to WT” value [2] was 103 fold. For the same molecule, the “IC50 fold change compared to WT” value ([2]; listed as PER) was “approximately 100 fold”.
